Measured values published in patent US20260102503A1, “NANOCOMPOSITES FOR ENHANCED CELLULAR PAYLOAD DELIVERY” (priority 2022, published 2026).

Assay: Conjugation efficiency of nanofibers onto PLGA nanoparticles
Type: physicochemical
Settings: 2 mg PLGA nanoparticles

## K9A5(QW)6 (KKKKKKKKKAAAAAQWQWQWQWQWQW) [K9A5(QW)6 (SEQ ID NO: 5), peptide nanofiber group compared for conjugation efficiency]
0.25 mg total mass of nanofiber used
  Conjugation efficiency: 25.5%
0.50 mg total mass of nanofiber used
  Conjugation efficiency: 24.7%
